Pooled drug test results. Numbers come from NIAID ChemDB, via PubChem.

Common to all: target-level tests

Rows are shuffled and stem from different studies. Percent inhibition refers to the dose given; in toxicity tests it is the harm to the cells. ICn: concentration for n% inhibition. An empty or dashed field is not shown. Two numbers with a dash give a range or band.

smiles	read-out	dose	protein	agent	value
COc1nc(NCCCn2ccnc2)nc(Nc2ccc3cn[nH]c3c2)n1	inhibition	0.1 µg/mL	DNA polymerase	Hepatitis B virus	41%
O=C(O)c1cnn2c(-c3ccc(OCc4ccccc4)cc3)c(-c3ccccc3)cnc12	IC50	-	RNA-dependent RNA polymerase	Hepatitis C virus	>10 µM
COc1ccc(-c2cccc(C(=O)O)c2)c(-c2ccc3cc(-c4nc5cc(C(=O)O)ccc5n4C4CCCCC4)ccc3n2)c1	inhibition	100 µM	NS5B polymerase	Hepatitis C virus	101%
O=C(O)CCNC(=O)c1cc2nc(-c3ccc(Cl)cc3)cc(-c3ccc(Oc4ccccc4)cc3)n2n1	IC50	-	RNA-dependent RNA polymerase	Hepatitis C virus	1–10 µM
O=C(CC(c1ccccc1)c1ccccc1)Nc1cccc(-c2nc(C(=O)O)c(O)c(=O)[nH]2)c1	IC50	-	HCV polymerase	Hepatitis C virus	<100 µM
C=CCOC(=O)N[C@@H]1C[C@@H](C(=O)N[C@H](C=O)CC)N(C(=O)[C@@H](NC(=O)[C@@H](NC(=O)c2cnccn2)C(C)C)C(C)C)C1	Ki	-	NS3 protease	Hepatitis C virus	>100 µM
O=C(O)c1cc2nc(-c3ccc(C(F)(F)F)cc3)cc(-c3ccc(-c4ccccc4)cc3)n2n1	IC50	-	RNA-dependent RNA polymerase	Hepatitis C virus	1–10 µM
COc1ccc(-c2cccc([N+](=O)[O-])c2)c(-c2ccc3cc(-c4nc5cc(C(=O)O)ccc5n4C4CCCCC4)ccc3n2)c1	inhibition	33 µM	NS5B polymerase	Hepatitis C virus	98.26%
O=C(O)c1cnn2c(-c3ccccc3-c3cccc(Cl)c3)ccnc12	IC50	-	RNA-dependent RNA polymerase	Hepatitis C virus	>10 µM
O=C(Cc1c[nH]c2ccccc12)Nc1ccsc1-c1nc(C(=O)O)c(O)c(=O)[nH]1	IC50	-	HCV polymerase	Hepatitis C virus	<25 µM
CCN(C(=O)CCC(C)C)c1cc(-c2ccccc2)sc1C(=O)O	IC50	-	NS3 ATPase	Hepatitis C virus	<5 µM
CCOC(=O)c1csc(COc2cc3c(C(=O)NC)c(-c4ccc(F)cc4)oc3cc2N(C)S(C)(=O)=O)n1	IC50	-	Nonstructural protein 5B	Hepatitis C virus	≤0.5 µM
CC[C@@H](C=O)NC(=O)[C@@H]1C[C@@H](OCc2ccccc2)CN1C(=O)[C@@H](NC(=O)[C@H](Cc1cccc2ccccc12)NC(=O)c1cnccn1)C(C)C	Ki	-	NS3 protease	Hepatitis C virus	1–100 µM
Cc1cccc(COc2cccc(-c3nc(C(=O)O)c(O)c(=O)[nH]3)c2)c1F	IC50	-	HCV polymerase	Hepatitis C virus	<100 µM
CON1C(Nc2ccc3cn[nH]c3c2)=NC(NC(C)C)=NC1NC(C)C	IC50	-	DNA polymerase	Hepatitis B virus	0.1–1 µg/mL
Cc1ccc(S(=O)(=O)Nc2cc(-c3ccccc3)sc2C(=O)NCC(=O)O)cc1	IC50	-	NS3 ATPase	Hepatitis C virus	5–20 µM
Nc1ccc(-c2ccc3cc(-c4nc5cc(C(=O)O)ccc5n4C4CCCCC4)ccc3n2)cc1Br	inhibition	33 µM	NS5B polymerase	Hepatitis C virus	98.12%
CC(C)N(C(=O)c1ccc(Cl)cc1[N+](=O)[O-])c1cc(-c2ccccc2)sc1C(=O)O	IC50	-	NS3 ATPase	Hepatitis C virus	<5 µM
O=C(Cc1ccc(-c2ccccc2)cc1)Nc1ccsc1-c1nc(C(=O)O)c(O)c(=O)[nH]1	IC50	-	HCV polymerase	Hepatitis C virus	<25 µM
CNC(=O)c1c(-c2ccc(F)cc2)oc2cc(N3CCC(O)C3)c(OC(C)C)cc12	IC50	-	Nonstructural protein 5B	Hepatitis C virus	≤0.5 µM
O=C(O)c1cnn2c(C3CCCCC3)c(-c3ccc(Cl)c(Cl)c3)cnc12	IC50	-	RNA-dependent RNA polymerase	Hepatitis C virus	1–10 µM
CCOC(=O)N1CCN(c2nc(Nc3ccc4[nH]ncc4c3)nc(OC)n2)CC1	inhibition	0.1 µg/mL	DNA polymerase	Hepatitis B virus	23%
Cc1ccc(-c2cc(NS(=O)(=O)c3ccccc3C)c(C(=O)O)s2)nc1	IC50	-	NS3 ATPase	Hepatitis C virus	<5 µM
COc1nc(Nc2ccc3cn[nH]c3c2)nc(NN2CCOCC2)n1	inhibition	1 µg/mL	DNA polymerase	Hepatitis B virus	72%
O=C(O)c1cnn2c(-c3ccc(F)cc3)cc(-c3ccc(F)cc3)nc12	IC50	-	RNA-dependent RNA polymerase	Hepatitis C virus	>10 µM
O=C(O)c1ccc2c(c1)nc(-c1ccc3nc(-c4cc(O)cc(O)c4)ccc3c1)n2C1CCCCC1	inhibition	100 µM	NS5B polymerase	Hepatitis C virus	98.05%
COc1nc(Nc2ccc3cn[nH]c3c2)nc(N2CCCC2)n1	inhibition	1 µg/mL	DNA polymerase	Hepatitis B virus	63%
COc1ccc(-c2ccc(Cl)cc2)c(-c2ccc3cc(-c4nc5cc(C(=O)O)ccc5n4CC4CC4)ccc3n2)c1	inhibition	100 µM	NS5B polymerase	Hepatitis C virus	99.26%
Cc1cc(S(=O)(=O)N(Cc2cccc(-c3cc4ccccc4o3)c2)c2cc(-c3ccccc3)sc2C(=O)O)c(C)cc1Cl	IC50	-	NS3 ATPase	Hepatitis C virus	5–20 µM
O=C(Nc1ccsc1-c1nc(C(=O)O)c(O)c(=O)[nH]1)OCCc1cccc2ccccc12	IC50	-	HCV polymerase	Hepatitis C virus	<25 µM
CNC(=O)c1c(-c2ccc(F)cc2)oc2cc(C(O)C(C)C)c(OC(C)C)cc12	IC50	-	Nonstructural protein 5B	Hepatitis C virus	≤0.5 µM
COc1ccc(C2CCCCC2)c(-c2ccc3cc(-c4nc5cc(C(=O)O)ccc5n4C4CCCCC4)ccc3n2)c1	inhibition	100 µM	NS5B polymerase	Hepatitis C virus	101%
CNC(=O)c1c(-c2ccc(F)cc2)oc2cc(NCC3CCCO3)c(OC(C)C)cc12	IC50	-	Nonstructural protein 5B	Hepatitis C virus	≤0.5 µM
O=C(O)c1nc(-c2sccc2NC(=O)C2CCCNC2)[nH]c(=O)c1O	IC50	-	HCV polymerase	Hepatitis C virus	<25 µM
COc1ccc(-c2cccc(Cl)c2)c(-c2ccc3cc(-c4nc5cc(C(=O)O)ccc5n4C4CCCCC4)ccc3n2)c1	inhibition	33 µM	NS5B polymerase	Hepatitis C virus	98.76%
CC[C@@H](C=O)NC(=O)[C@@H]1C[C@@H](OCc2ccc(Cl)c(Cl)c2)CN1C(=O)[C@@H](NC(=O)[C@@H](NC(=O)c1cnccn1)C(C)C)C(C)C	Ki	-	NS3 protease	Hepatitis C virus	1–100 µM
COc1nc(Nc2ccc3[nH]ncc3c2)nc(N2CCN(C)CC2)n1	inhibition	1 µg/mL	DNA polymerase	Hepatitis B virus	69%
O=C(N[C@@H](Cc1c[nH]c2ccccc12)C(=O)O)c1cnn2c(C3CCCCC3)c(-c3ccc(F)cc3F)cnc12	IC50	-	RNA-dependent RNA polymerase	Hepatitis C virus	<1 µM
O=C(Nc1ccsc1-c1nc(C(=O)O)c(O)c(=O)[nH]1)c1ccc(-c2ccccc2)cc1	IC50	-	HCV polymerase	Hepatitis C virus	<25 µM
COc1nc(NCCCn2ccnc2)nc(Nc2ccc3[nH]ncc3c2)n1	inhibition	0.1 µg/mL	DNA polymerase	Hepatitis B virus	50%
O=C(O)c1ccc2c(c1)nc(-c1ccc3nc(-c4ccc[nH]4)ccc3c1)n2C1CCCCC1	inhibition	100 µM	NS5B polymerase	Hepatitis C virus	99.7%
CC[C@@H](C=O)NC(=O)[C@@H]1C[C@@H](OC(=O)Nc2ccc(OC)cc2)CN1C(=O)[C@@H](NC(=O)[C@@H](NC(=O)c1cnccn1)C(C)C)C(C)C	Ki	-	NS3 protease	Hepatitis C virus	1–100 µM

4 of the rows above, restated:

smiles | read-out | dose | protein | agent | value
CCOC(=O)c1csc(COc2cc3c(C(=O)NC)c(-c4ccc(F)cc4)oc3cc2N(C)S(C)(=O)=O)n1 | IC50 | - | Nonstructural protein 5B | Hepatitis C virus | ≤0.5 µM
COc1ccc(C2CCCCC2)c(-c2ccc3cc(-c4nc5cc(C(=O)O)ccc5n4C4CCCCC4)ccc3n2)c1 | inhibition | 100 µM | NS5B polymerase | Hepatitis C virus | 101%
Cc1ccc(S(=O)(=O)Nc2cc(-c3ccccc3)sc2C(=O)NCC(=O)O)cc1 | IC50 | - | NS3 ATPase | Hepatitis C virus | 5–20 µM
CNC(=O)c1c(-c2ccc(F)cc2)oc2cc(N3CCC(O)C3)c(OC(C)C)cc12 | IC50 | - | Nonstructural protein 5B | Hepatitis C virus | ≤0.5 µM